Measured values from patent US20260001922A1, “PEPTIDES TARGETING SODIUM CHANNELS TO TREAT PAIN” (priority 2022, published 2026).

Tests used:
Assay in all cases: cell-based or functional assay
[1] = target: human Nav1.8 channel (co-expressing with human Navβ1 and Navβ2 subunits) (human), Q9Y5Y9
[2] = target: Nav1.9 channel (co-expressing with human Trkb, Navβ1, and Navβ2 subunits) (human), Q9UI33
[3] = target: human Nav1.5 (human), Q14524
[4] = target: human Nav1.2 (human), Q99250
[5] = target: human Nav1.4 (human), P35499

Binder	hNav1.8 IC50 (nM), whole-cell patch clamp [1]	hNav1.9 IC50 (nM), whole-cell patch clamp [2]	percent block of hNav1.5 current at 10 µM peptide [3]	percent block of hNav1.2 current at 10 µM peptide [4]	percent block of hNav1.4 current at 10 µM peptide [5]
QCQKWMQTCDKDRKCCEGFRCRLWCRKELL (modifications not checked) [PTx2-3127]	> 150000 nM	> 150000 nM			
QCQKWMQTCDKARKCCEGFRCRLWCRKELL (modifications not checked) [PTx2-3128]		8000 nM			
YCQKAFWTCDSARKCCEGLRCRLWCRKELW (modifications not checked) [PTx2-3064]			25%	92%	66%
YCQKWMQTCDKDRKCCEGLRCRLWCRKELL (modifications not checked) [PTx2-3066]			1%	41%	34%
